Test results published in patent US4933332A, “11-desoxy-17-α-hydroxycorticosterone derivatives” (priority 1988, dated 1990).

System: mice
Assay: Toxicological study, single administration

`O=C(O)Cc1ccc(N(CCCl)CCCl)cc1` gave an LD50 of 24 mg/kg and an MTD of 15 mg/kg.
